Biological target: His-GyrA59 (59-kDa N-terminal fragment of E. coli GyrA, residues 2-523) (E. coli) (UniProt P0AES4)
Test: SPR

## Vibrio cholerae ParE2, native (His6 tag removed) (natural protein)
  Kd: 0.02 nM

Reference: PMC3001019
